Laboratory results: article PMC9162458
The exact form of at least one protein or probe is not confirmed. At least one verdict rests on a figure or table, not on a statement of the authors. Where a protein sequence is shown, tags need not be part of it.

Target: T1, LiRAD51 (full-length) (Leishmania infantum) (UniProt A4I3C9)
T1 sequence (looked up, limits assumed): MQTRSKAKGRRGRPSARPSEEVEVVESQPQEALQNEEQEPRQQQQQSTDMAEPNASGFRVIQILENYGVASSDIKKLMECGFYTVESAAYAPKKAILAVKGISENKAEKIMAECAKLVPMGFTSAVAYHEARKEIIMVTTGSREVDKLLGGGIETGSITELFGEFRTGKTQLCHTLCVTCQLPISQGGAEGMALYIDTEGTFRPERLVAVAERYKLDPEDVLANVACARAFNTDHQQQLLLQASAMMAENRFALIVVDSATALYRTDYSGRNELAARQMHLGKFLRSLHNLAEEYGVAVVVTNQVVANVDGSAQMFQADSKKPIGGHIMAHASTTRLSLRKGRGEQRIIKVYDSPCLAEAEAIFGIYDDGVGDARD
Assay: EMSA
Conditions: 5 uM LiRAD51, 100 nM DNA, 1 mM ATP, 10 mM Mg acetate, 2 mM CaCl2, no BRC repeat, EMSA: 50 mM HEPES pH 7.4, 150 mM NaCl, 10 mM magnesium acetate, 2 mM CaCl2, 1 mM TCEP, 10 min RT with BRC repeat, then 10 min 37 C with DNA, recombinant protein, single-stranded DNA

TTTTTTTTTTTTTTTTTTTTTTTTTTTTTTTTTTTTTTTTTTTTTTTTTTTTTTTTTTTT [FAM-dT60]
binding result: binds
